Measured values from several laboratories, pooled; numbers as filed in NIAID ChemDB.

All rows: whole-cell or culture tests; species: HIV-1; read by: antigen; endpoint: EC50

Rows are shuffled and stem from different studies. Two numbers with a dash give a range or band. An empty or dashed field is not shown. ECn: concentration that inhibits the pathogen or its effect by n%.

structure,cells,strain,value
Nc1ncnc2c1ncn2[C@H]1C[C@@H](CO)O1,MT-4,,<3 µg/mL
Cc1cn([C@@H]2O[C@H](CO)C[C@@H]2F)c(=O)nc1N,H9,IIIB,>1000 µM
CCOCn1c(Cc2ccccc2)c(C(C)C)c(=O)[nH]c1=O,MT-4,IIIB,0.005 µM
NCCC[C@@H](N)CC(=O)NCN,MT-4,IIIB,0.2 µg/mL
Cc1cn([C@@H]2O[C@H](CO)[C@@H](N=[N+]=[N-])[C@H]2F)c(=O)[nH]c1=O,H9,IIIB,>1000 µM
CCCCCCCC/C=C\CCCCCCCCOP(=O)([O-])OCC[NH2+]C,C8166,,10 µM
C=C(CC[C@@H](C)[C@H]1CC=C2C3=C([C@@H](O)[C@H](OC(C)=O)[C@@]21C)[C@@]1(C)C[C@@H](O)[C@H](OS(=O)(=O)O)C(C)(C)[C@@H]1CC3)C(C)C,H9,,<25 µM
O=c1[nH]cnc2c1ncn2[C@@H]1O[C@H](CO)[C@H]1COS(=O)(=O)O,MT-4,,<10 µg/mL
CC(C)(C)NC(=O)[C@@H]1C[C@H](O)CN1C(=O)[C@@H](O)[C@H](Cc1ccccc1)NC(=O)[C@H](CC(N)=O)NC(=O)OCc1ccccc1,MT-4,,10–30 µg/mL
Cc1cn([C@@H]2O[C@H](COC(c3ccccc3)(c3ccccc3)c3ccccc3)[C@@H](F)[C@H]2F)c(=O)[nH]c1=O,H9,IIIB,>1000 µM
COC(=O)C[C@H](NP(=O)(N[C@@H](CC(=O)OC)C(=O)OC)OC[C@H]1O[C@@H](n2cc(C)c(=O)[nH]c2=O)C[C@@H]1N=[N+]=[N-])C(=O)OC,C8166,RF,0.9 µM
Cc1cn([C@@H]2O[C@H](COC(c3ccccc3)(c3ccccc3)c3ccccc3)C3OC32)c(=O)[nH]c1=O,H9,IIIB,>1000 µM
Nc1ncnc2c1ncn2[C@@H]1O[C@H](CO)[C@H]1CO,MT-4,IIIB,<1 µg/mL
CCCCCCCCCC(O)CC(=O)O,HeLa37,,27.6 µg/mL
Cc1cn([C@@H]2O[C@H](COC(c3ccccc3)(c3ccccc3)c3ccccc3)[C@H](O)[C@H]2N=[N+]=[N-])c(=O)[nH]c1=O,H9,IIIB,>1000 µM
C#C[C@]1(O)[C@@H](O)[C@H](n2ccc(=O)[nH]c2=O)OC1(CO)CO,MT-4,IIIB,>100 µM
CCCc1cn([C@@H]2C[C@H](F)[C@@H](CO)O2)c(=O)[nH]c1=O,H9,IIIB,2.5 µM
COC(=O)C(=O)N1CCC[C@H]1C(=O)N[C@@H](Cc1ccccc1)C(=O)Nc1ccc(OCC(=O)N[C@@H](CC(N)=O)C(=O)N[C@@H](Cc2ccccc2)[C@H](O)C(=O)N2CCC[C@H]2C(=O)NC(C)(C)C)cc1,MT-4,,>100 µg/mL
Cc1cn([C@@H]2O[C@H](CO)[C@@H](F)[C@H]2N=[N+]=[N-])c(=O)[nH]c1=O,H9,IIIB,>1000 µM
C#C[C@@]1(O)[C@@H]([C@H](O)CO)O[C@@H](n2ccc(N)nc2=O)[C@@H]1O,MT-4,IIIB,>100 µM
Nc1ncnc2c1ncn2[C@@H]1O[C@H](CO)[C@@H]1O,MT-4,IIIB,<0.2 µg/mL
CC(=O)O[C@H]1[C@H](O)C2=C(CC[C@H]3C(C)(C)[C@@H](OS(=O)(=O)O)[C@H](OC(=O)CCCCCCCCCCCCCCCO)C[C@]23C)C2=CC[C@H]([C@H](C)CCC3(C(C)(C)O)CO3)[C@]21C,H9,,<6 µM
COC(=O)CNP(=O)(NCC(=O)OC)OC[C@H]1O[C@@H](n2cc(C)c(=O)[nH]c2=O)C[C@@H]1N=[N+]=[N-],C8166,RF,0.5 µM
COc1cc(O)c2c(c1)C(=O)c1c(cc3c(c1O)-c1c(cc(C)c(C(=O)N[C@H](C)C(=O)O)c1O)[C@H](O[C@@H]1O[C@H](C)[C@H](O)[C@H](O[C@@H]4OC[C@@H](O)[C@H](O)[C@H]4O)[C@H]1O)[C@H]3O)C2=O,MT-4,IIIB,<10 µg/mL
CCCCCCCCCCCCCCCC(=O)OC[C@H]1O[C@@H](n2cnc3c(N)ncnc32)[C@@H]1CO,MT-4,,<3 µg/mL
N[C@H]1CONC1=O,CEM,N1T,<5 µg/mL
COC(=O)C(=O)N1CCC[C@H]1C(=O)N[C@@H](Cc1ccccc1)C(=O)Nc1cccc(OCC(=O)N[C@@H](CC(N)=O)C(=O)N[C@@H](Cc2ccccc2)[C@H](O)C(=O)N2CCC[C@H]2C(=O)NC(C)(C)C)c1,MT-4,,100 µg/mL
O=c1ccn(N2C[C@H](CO)[C@H]2CO)c(=O)[nH]1,MT-4,,>100 µg/mL
COC(=O)[C@H](Cc1ccccc1)NP(=O)(N[C@@H](Cc1ccccc1)C(=O)OC)OC[C@H]1O[C@@H](n2cc(C)c(=O)[nH]c2=O)C[C@@H]1N=[N+]=[N-],C8166,RF,0.05 µM
CC1(C)[C@@H](O[C@H]2O[C@H](C(=O)O)[C@@H](O)[C@H](O)[C@H]2O[C@@H]2O[C@H](C(=O)O)[C@@H](O)[C@H](O)[C@H]2O)CC[C@]2(C)[C@H]3C(=O)C=C4[C@@H]5C[C@@](C)(C(=O)O)CC[C@]5(C)CC[C@@]4(C)[C@]3(C)CC[C@@H]12,MT-4,IIIB,<300 µM
C#C[C@@]1(OC(C)=O)[C@@H]([C@@H](C)OC(C)=O)O[C@@H](n2ccc(NC(=O)c3ccccc3)nc2=O)[C@@H]1OC(C)=O,MT-4,IIIB,>100 µM
Cc1cn([C@@H]2O[C@H](CO)[C@@H](F)[C@H]2F)c(=O)[nH]c1=O,H9,IIIB,>1000 µM
Nc1ccn([C@H]2C=C[C@@H](CO)O2)c(=O)n1,MT-4,IIIB,<0.5 µM
CCOCn1c(Sc2ccccc2)c(CC)c(=O)[nH]c1=O,CEM,,<0.04 µM
C#C[C@]1(O)[C@H]2OC[C@]1(CO)O[C@H]2n1ccc(=O)[nH]c1=O,MT-4,IIIB,>100 µM
CC(C)(CNC(=O)C(C)(C)C)NC(=O)[C@@H]1CCCN1C(=O)[C@@H](O)[C@H](Cc1ccccc1)NC(=O)[C@H](CC(N)=O)NC(=O)OCc1ccccc1,MT-4,,>100 µg/mL
CCc1cn([C@@H]2C[C@H](O)[C@@H](CO)O2)c(=O)[nH]c1=O,H9,IIIB,10 µM
COC(=O)[C@H](C)NP(=O)(OC[C@@H]1C=C[C@H](n2cnc3c(NC4CC4)nc(N)nc32)C1)Oc1ccccc1,MM + M/M,BaL,0.01 µM
C#C[C@@]1(O)[C@@H](CO)O[C@@H](n2ccc(=O)[nH]c2=O)[C@@H]1O,MT-4,IIIB,>100 µM
Cc1cn([C@@H]2O[C@H](CO)[C@@H](F)[C@@H]2F)c(=O)[nH]c1=O,H9,IIIB,>1000 µM

Again, the opening 4 rows:

structure | cells | strain | value
Nc1ncnc2c1ncn2[C@H]1C[C@@H](CO)O1 | MT-4 |  | <3 µg/mL
Cc1cn([C@@H]2O[C@H](CO)C[C@@H]2F)c(=O)nc1N | H9 | IIIB | >1000 µM
CCOCn1c(Cc2ccccc2)c(C(C)C)c(=O)[nH]c1=O | MT-4 | IIIB | 0.005 µM
NCCC[C@@H](N)CC(=O)NCN | MT-4 | IIIB | 0.2 µg/mL